Source: patent US11083707B2, “Substituted indoline derivatives as dengue viral replication inhibitors” (JANSSEN PHARMACEUTICALS, INC., priority 2017, dated 2021)

Experiments:
Format in all cases: cell-based, Dengue virus
DENV-4 strain H241 = experiment: Tetravalent RT-qPCR assay Protocol A, serotype 4; conditions: RT-qPCR serotype 4 H241
Protocol: (§1) The antiviral activity of the compounds of the invention was tested against DENV-1 strain TC974#666 (NCPV), DENV-2 strain 16681, DENV-3 strain H87 (NCPV) and DENV-4 strain H241 (NCPV) in a RT-qPCR assay. Therefore, Vero cells were infected with either DENV-1, or -2, or -3, or -4 in the presence or absence of test compounds. At day 3 post-infection, the cells were lysed and cell lysates were used to prepare cDNA of both a viral target (the 3′UTR of DENV; Table 2) and a cellular reference gene (β-actin, Table 2). Subsequently, a duplex real time PCR was performed on a Lightcycler480 instrument. The generated Cp value is inversely proportional to the amount of RNA expression of these targets. Inhibition of DENV replication by a test compound results in a shift of Cp's for the 3′UTR gene. On the other hand, if a test compound is toxic to the cells, a similar effect on β-actin expression will be observed. The comparative ΔΔCp method is used to calculate EC50, which is based on the relative gene expression of the target gene (3′UTR) normalized with the cellular housekeeping gene (β-actin). In addition, CC50 values are determined based on the Cp values acquired for the housekeeping gene β-actin.
(§2) The culture medium consisted of minimal essential medium supplemented with 2% of heat-inactivated fetal calf serum, 0.04% gentamycin (50 mg/mL) and 2 mM of L-glutamine. Vero cells, obtained from ECACC, were suspended in culture medium and 75 μL/well was added in 96-well plates (10000 cells/well), which already contain the antiviral compounds. […] In addition, each plate contains wells which are assigned as virus controls (containing cells and virus in the absence of compound) and cell controls (containing cells in the absence of virus and compound). Once the cells were added in the plates, the plates were incubated in a fully humidified incubator (37° C., 5% CO2) until the next day. Dengue viruses serotype-1, 2, 3 and 4 were diluted in order to obtain a Cp of ˜22-24 in the assay. Therefore, 25 μL of virus suspension was added to all the wells containing test compound and to the wells assigned as virus control. In parallel, 25 μL of culture medium was added to the cell controls. Next, the plates were incubated for 3 days in a fully humidified incubator (37° C., 5% CO2). After 3 days, the supernatant was removed from the wells and the cells were washed twice with ice-cold PBS (˜100 μL). The cell pellets within the 96-well plates were stored at −80° C. for at least 1 day. Next, RNA was extracted using the Cells-to-CT™ lysis kit, according to the manufacturer's guideline (Life Technologies). The cell lysates can be stored at −80° C. or immediately used in the reverse transcription step.
(§3) In preparation of the reverse transcription step, mix A (table 3A) was prepared and 7.57 μL/well was dispensed in a 96-well plate. After addition of 5 μL of the cell lysates, a five minute denaturation step at 75° C. was performed (table 3B). Afterwards, 7.43 μL of mix B was added (table 3C) and the reverse transcription step was initiated (table 3D) to generate cDNA.
(§4) Finally, a RT-qPCR mix was prepared, mix C (table 4A), and 22.02 μL/well was dispensed in 96-well LightCycler qPCR plates to which 3 μL of cDNA was added and the qPCR was performed according to the conditions in table 4B on a LightCycler 480.
(§5) Using the LightCycler software and an in-house LIMS system, dose response curves for each compound were calculated and the half maximal effective concentration (EC50) and the half maximal cytotoxic concentration (CC50) were determined (Tables 5-8).

DENV-1 strain TC974#666 = experiment: Tetravalent RT-qPCR assay Protocol A, serotype 1; conditions: RT-qPCR serotype 1 TC974#666
Protocol: as §1, §2, §3, §4, §5

DENV-2 16681 strain = experiment: DENV-2 antiviral assay (eGFP fluorescence, Vero cells); conditions: SI=CC50/EC50, DENV-2 antiviral assay
Protocol: The antiviral activity of all the compounds of the invention was tested against the DENV-2 16681 strain which was labeled with enhanced green fluorescent protein (eGPF). The culture medium consists of minimal essential medium supplemented with 2% of heat-inactivated fetal calf serum, 0.04% gentamycin (50 mg/mL) and 2 mM of L-glutamine. Vero cells, obtained from ECACC, were suspended in culture medium and 25 μL was added to 384-well plates (2500 cells/well), which already contain the antiviral compounds. Typically, these plates contain a 5-fold serial dilution of 9 dilution steps of the test compound at 200 times the final concentration in 100% DMSO (200 nL). […] Finally, each plate contains wells which are assigned as virus controls (containing cells and virus in the absence of compound), cell controls (containing cells in the absence of virus and compound) and medium controls (containing medium in the absence of cells, virus and compounds). To the wells assigned as medium control, 25 μL of culture medium was added instead of Vero cells. Once the cells were added to the plates, the plates were incubated for 30 minutes at room temperature to allow the cells to distribute evenly within the wells. Next, the plates were incubated in a fully humidified incubator (37° C., 5% CO2) until the next day. Then, DENV-2 strain 16681, labeled with eGFP, was added at a multiplicity of infection (MOI) of 0.5. Therefore, 15 μL of virus suspension was added to all the wells containing test compound and to the wells assigned as virus control. In parallel, 15 μL of culture medium was added to the medium and cell controls. Next, the plates were incubated for 3 days in a fully humidified incubator (37° C., 5% CO2). At the day of the read out, the eGFP fluorescence was measured using an automated fluorescence microscope at 488 nm (blue laser). Using an in-house LIMS system, inhibition dose response curves for each compound were calculated and the half maximal effective concentration (EC50) was determined. Therefore, the percent inhibition (I) for every test concentration is calculated using the following formula: I=100*(ST-SCC)/(SVC-SCC), ST, SCC and SVC are the amount of eGFP signal in the test compound, cell control and virus control wells, respectively. The EC50 represents the concentration of a compound at which the virus replication is inhibited with 50%, as measured by a 50% reduction of the eGFP fluorescent intensity compared to the virus control. The EC50 is calculated using linear interpolation (Table 1).

DENV-2 strain 16681 = experiment: Tetravalent RT-qPCR assay Protocol A, serotype 2; conditions: RT-qPCR serotype 2 16681
Protocol: as §1, §2, §3, §4, §5

DENV-3 strain H87 = experiment: Tetravalent RT-qPCR assay Protocol A, serotype 3; conditions: RT-qPCR serotype 3 H87
Protocol: as §1, §2, §3, §4, §5

SMILES | SI (DENV-4 strain H241) | SI (DENV-1 strain TC974#666) | SI (DENV-2 16681 strain) | SI (DENV-2 strain 16681) | SI (DENV-3 strain H87)
COc1cc(NC(C(=O)N2CCc3ccc(C(F)(F)F)cc32)c2ccc(F)cc2OCCO)cc(-n2cncn2)c1 (single isomer, unassigned) [Compound 1B] | 10 | >2290 | 3530 | >1480 | >123
COc1cc(NC(C(=O)N2CCc3cc(OC)c(C(F)(F)F)cc32)c2ccc(F)cc2OCCO)cc(-n2cncn2)c1 (single isomer, unassigned) [Compound 2B] | >11 | >744 | 4180 | 2070 | >118
COc1cc(NC(C(=O)N2CCc3ccc(OC(F)(F)F)cc32)c2ccc(F)cc2OCCO)cc(-n2cncn2)c1 (single isomer, unassigned) [Compound 3B] | >25 | >1550 | 11400 | 5680 | >136
COc1cc(NC(C(=O)N2CCc3ccc(C(F)(F)F)cc32)c2ccc(Cl)cc2OCCO)cc(-n2cncn2)c1 (single isomer, unassigned) [Compound 4B] | 23 | >8060 | 16100 | 6270 | 228
COc1cc(NC(C(=O)N2CCc3cc(OC)c(C(F)(F)F)cc32)c2ccc(Cl)cc2OCCO)cc(-n2cncn2)c1 (single isomer, unassigned) [Compound 5B] | >33 | >981 | 14400 | 6730 | >116
COc1cc(NC(C(=O)N2CCc3ccc(OC(F)(F)F)cc32)c2ccc(Cl)cc2OCCO)cc(-n2cncn2)c1 (single isomer, unassigned) [Compound 6A] | >53 | >10900 | 14900 | 18700 | >227
COc1cc(NC(C(=O)N2CCc3cc(F)c(C(F)(F)F)cc32)c2ccc(Cl)cc2OCCO)cc(-n2cncn2)c1 (single isomer, unassigned) [Compound 7B] | 10 | >6750 | 4180 | >9150 | >259
COc1cc(NC(C(=O)N2CCc3cc(OC)c(OC(F)(F)F)cc32)c2ccc(Cl)cc2OCCO)cc(-n2cncn2)c1 (single isomer, unassigned) [Compound 8A] | 21 | >1570 | 7360 | 3620 | >203
COc1cc(NC(C(=O)N2CCc3cc(OC)c(OC(F)(F)F)cc32)c2ccc(Cl)cc2OCCO)cc(-n2cncn2)c1 (single isomer, unassigned) [Compound 8B] |  |  | 47 |  | 
COc1cc(NC(C(=O)N2CCc3cc(F)c(OC(F)(F)F)cc32)c2ccc(Cl)cc2OCCO)cc(-n2cncn2)c1 (single isomer, unassigned) [Compound 9A] |  |  | 17 |  | 
COc1cc(NC(C(=O)N2CCc3cc(F)c(OC(F)(F)F)cc32)c2ccc(Cl)cc2OCCO)cc(-n2cncn2)c1 (single isomer, unassigned) [Compound 9B] | 27 | >2860 | 13800 | >4250 | >103
COc1cc(NC(C(=O)N2CCc3c(C)cc(OC(F)(F)F)cc32)c2ccc(Cl)cc2OCCO)cc(-n2cncn2)c1 (single isomer, unassigned) [Compound 10A] |  |  | 165 |  | 
COc1cc(NC(C(=O)N2CCc3c(C)cc(OC(F)(F)F)cc32)c2ccc(Cl)cc2OCCO)cc(-n2cncn2)c1 (single isomer, unassigned) [Compound 10B] | 27 | >8670 | 51400 | >10700 | >414
COc1cc(NC(C(=O)N2CCc3ccc(C(F)(F)F)cc32)c2ccc(Cl)cc2OCCCC(=O)O)cc(-n2cncn2)c1 (single isomer, unassigned) [Compound 11A] |  |  | 246 |  | 
COc1cc(NC(C(=O)N2CCc3ccc(C(F)(F)F)cc32)c2ccc(Cl)cc2OCCCC(=O)O)cc(-n2cncn2)c1 (single isomer, unassigned) [Compound 11B] | 184 | >41800 | 45200 | 64900 | >991
COc1cc(NC(C(=O)N2CCc3cc(OC)c(C(F)(F)F)cc32)c2ccc(Cl)cc2OCCCC(=O)O)cc(-n2cncn2)c1 (single isomer, unassigned) [Compound 12A] | 96 | 3850 | 11000 | 19800 | 384
COc1cc(NC(C(=O)N2CCc3cc(OC)c(C(F)(F)F)cc32)c2ccc(Cl)cc2OCCCC(=O)O)cc(-n2cncn2)c1 (single isomer, unassigned) [Compound 12B] |  |  | 37 |  | 
COc1cc(NC(C(=O)N2CCc3ccc(OC(F)(F)F)cc32)c2ccc(Cl)cc2OCCCC(=O)O)cc(-n2cncn2)c1 (single isomer, unassigned) [Compound 13A] | 251 | >32500 | 103601 | >53100 | >1580
COc1cc(NC(C(=O)N2CCc3ccc(OC(F)(F)F)cc32)c2ccc(Cl)cc2OCCCC(=O)O)cc(-n2cncn2)c1 (single isomer, unassigned) [Compound 13B] |  |  | 972 |  | 
COc1cc(NC(C(=O)N2CCc3ccc(OC(F)(F)F)cc32)c2ccc(Cl)cc2OCCC(C)(C)C(=O)O)cc(-n2cncn2)c1 (single isomer, unassigned) [Compound 14A] |  |  | 22 |  | 
COc1cc(NC(C(=O)N2CCc3cc(F)c(OC(F)(F)F)cc32)c2ccc(Cl)cc2OCCCC(=O)O)cc(-n2cncn2)c1 (single isomer, unassigned) [Compound 15A] |  |  | 1970 |  | 
COc1cc(NC(C(=O)N2CCc3c(C)cc(OC(F)(F)F)cc32)c2ccc(Cl)cc2OCCCC(=O)O)cc(-n2cncn2)c1 (single isomer, unassigned) [Compound 16A] |  |  | 800 |  | 
